PubChem BioAssay AID624099, ICCB-Longwood – 2012

- Assay: 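Host factors E2 relies on to silence an HPV18 LCR reporter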 (primary screen)
- System: human C33A cervical carcinoma cells (HPV-negative) stably expressing BPV1 E2 and an HPV18 LCR luciferase reporter
- Reagent: siRNA pool against human genes, 40 nM
- Time to read-out: 72 h
- Detection: 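HPV18 LCR reporter light per well, converted to plate-wise z-scores that exclude control wells, and averaged over triplicate plates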
- Reading the numbers: mean z-score and z-score: higher = stronger reporter signal, weaker E2 silencing
- Call rule: 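Mean z ≥ 2 together with z ≥ 2 in two or more of the three replicates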
The deposit covers about 21,000 reagents; shown is a part drawn at random. 497 of all reagents (2.4%) were called active. 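Higher z means weaker E2 silencing; only reporter increases were scored, and knock-downs that hurt cell survival may mask genuine repressor factors.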 The numbers tell different reagents against one gene apart. Reagent sequences are not shown.

no.	gene symbol	pool no.	mean z-score	z-score, replicate A	z-score, replicate B	z-score, replicate C	activity call
1	RASGRP1	1	0.14	0.18		0.1	inactive
2	DUSP4	1	-0.92	-0.64	-1.04	-1.09	inactive
3	TIMM8A	1	-0.02	-0.1	-0.23	0.28	inactive
4	ARID5A	1	-0.67	-0.77	-0.57	-0.68	inactive
5	ABLIM1	1	0.08	-0.07	0.27	0.05	inactive
6	PRAMEF1	1	0.61	0.76	0.47	0.61	inactive
7	SAMD14	1	-0.81	-1.09	-0.53	-0.82	inactive
8	MTMR3	1	0.66	0.75	0.72	0.5	inactive
9	MTMR3	2	-0.14	0	-0.32	-0.1	inactive
10	ZNF14	1	-0.08	-0.11	-0.1	-0.02	inactive
11	ARFGAP1	1	-0.43	-0.23	-0.58	-0.48	inactive
12	NFIL3	1	0.85	1.06	0.7	0.79	inactive
13	MINDY4	1	-1.37	-1.32	-1.42	-1.39	inactive
14	TAS2R10	1	1.05	0.93	1	1.22	inactive
15	MRPS7	1	2.24		1.97	2.52	inactive

The list goes on, starting with the last 2 of the part before.
no.	gene symbol	pool no.	mean z-score	z-score, replicate A	z-score, replicate B	z-score, replicate C	activity call
14	TAS2R10	1	1.05	0.93	1	1.22	inactive
15	MRPS7	1	2.24		1.97	2.52	inactive
16	ARF4P3	1	0.32	0.24	0.6	0.13	inactive
17	GAL3ST1	1	-1.08	-1.14	-1.08	-1.03	inactive
18	FAM43A	1	-0.46	-0.67	-0.51	-0.2	inactive
19	ZC3H7A	1	-1.52	-1.51	-1.48	-1.58	inactive
20	SYT5	1	0.45	0.52	0.35	0.49	inactive
21	EPHA3	1	-0.04	0.1	0.09	-0.3	inactive
22	KCNS3	1	-0.41	-0.47	-0.27	-0.48	inactive
23	FZD8	1	-1.2	-0.9	-1.62	-1.09	inactive
